Anti-infective test results gathered from many reports (values: NIAID ChemDB through PubChem).

All rows: whole-cell or culture tests; species: Mycobacterium tuberculosis

MIC bound: limit read from a one-dose screen.

smiles	strain	cells	read by	conditions	measure	tested at	value
CC1(C)CC(N=c2cc3n(-c4ccc(Cl)cc4Cl)c4ccccc4nc-3cc2Nc2ccc(Cl)cc2Cl)CC(C)(C)N1	H37Rv	Macrophages	-	inside macrophages	inhibition	0.005 µg/mL	60%
N#C/C(=C\c1cccc(Cl)c1Cl)n1nnc2ccccc21	ATCC 27294	-	-	-	MIC50	-	>100 µM
CN1CCN(c2cc3c(cc2F)c(=O)c(C(=O)O)c2n3CS2)CC1c1ccccc1	H37Rv	-	agar	-	MIC	-	7.36 µM
O=C(/C=C/c1ccccc1)c1ccc(O)cc1	H37Rv	-	MTT	7 d	MIC	-	32 µg/mL
O=c1[nH]c2c(Cl)c(Cl)ccc2c(O)c1N=Nc1ccccc1	H37Rv	-	resazurin	-	MIC	-	<6.25 µg/mL
O=C(/C=C/c1c(F)cccc1Cl)c1ccc(F)cc1	H37Rv	-	resazurin	21 d	MIC	-	64 µg/mL
O=C(Nn1c(=O)c(=O)oc2ccccc21)C(F)(F)F	H37Rv	-	BACTEC	-	inhibition	12.5 µg/mL	99%
COc1cccc(/C=C/C(=O)c2ccc(F)cc2)c1F	H37Rv	-	MTT	21 d	MIC	-	32 µg/mL
O=C(Nc1cccc2ccc(C3CCCCC3)nc12)C(F)(F)F	H37Rv	-	-	-	inhibition	6.25 µg/mL	9%
Oc1cc(CCc2ccccc2)ccc1Oc1ccc(Cl)cc1Cl	Clinical isolate 12081	-	-	-	MIC	-	210 µM
Cn1c(=O)c(N=Nc2ccccc2[N+](=O)[O-])c(O)c2ccccc21	H37Rv	-	resazurin	-	inhibition	6.25 µg/mL	94%
COc1ccc(C(=O)Nc2ccc(C(=O)N/N=C/c3ccc([N+](=O)[O-])o3)cc2)cc1	H37Rv	-	-	-	inhibition	6.25 µg/mL	0%
O=C(O)c1c2n(c3cc(N4CCN(Cc5ccc6c(c5)OCO6)CC4)c([N+](=O)[O-])cc3c1=O)CS2	H37Rv	-	agar	-	MIC	-	0.79 µM
COc1ccc(-c2c(C)c(C(=O)O)nc(-c3ccc4c(O)c(OC)c5c(c4n3)=NC(C)(C)N=5)c2N)c(O)c1OC	H37Rv	-	BACTEC	-	MIC bound	-	>12.8 µg/mL
N[C@@H](Cc1ccccc1)C(=O)N[C@@H](CB(O)O)Cc1ccccc1	H37Rv	-	-	-	MIC	-	≤5 µg/mL
Cc1ccc(NC(=O)CCCl)cc1Cl	H37Rv	-	BACTEC	-	MIC bound	-	>12.5 µg/mL
Cc1ccc(C(=O)/C=C/c2ccccc2)c(F)c1	H37Rv	-	resazurin	21 d	MIC	-	32 µg/mL
O=c1[nH]c2cc([N+](=O)[O-])ccc2c(O)c1N=Nc1ccccc1-c1ccccc1	H37Rv	-	resazurin	-	inhibition	6.25 µg/mL	100%
COc1ccc(C(=O)/C=C/c2ccc(F)cc2)cc1F	H37Rv	-	resazurin	14 d	MIC	-	128 µg/mL
C[C@@H](NC(=O)[C@@H](N)Cc1ccccc1)[C@@H](Cc1ccccc1)B1OC2CC3CC(C3(C)C)[C@@]2(C)O1	H37Rv	-	-	-	MIC	-	≤50 µg/mL
CCCCOc1ccc(NC(=S)Nc2ccc(N(C)C)cc2)cc1	H37RV #164	-	-	-	MIC	-	3.9 µg/mL
CN(C)CCCN1c2ccccc2Sc2ccc(Cl)cc21	23587	-	-	-	MIC	-	10 µg/mL
C[C@@H](B1OC2CC3CC(C3(C)C)[C@@]2(C)O1)[C@@H](Cc1ccccc1)NC(=O)[C@@H]1CCCN1	H37Rv	-	agar	-	MIC	-	≤500 µg/mL
CO[C@H]1/C=C/O[C@@]2(C)Oc3c(C)c(O)c4c(O)c(c(/C=N/N=C/N5CCCCC5)c(O)c4c3C2=O)NC(=O)/C(C)=C\C=C\[C@H](C)[C@H](O)[C@@H](C)[C@@H](O)[C@@H](C)[C@H](OC(C)=O)[C@@H]1C	isolates 3	-	-	-	MIC	-	3.12 µg/mL
O=C(/C=C/c1ccc(F)cc1Cl)c1ccc(F)cc1	H37Rv	-	resazurin	21 d	MIC	-	32 µg/mL
COc1cc(OC)c(/C=C2\N=C(c3ccccc3)OC2=O)c(OC)c1	H37Rv	-	BACTEC	-	MIC bound	-	>12.5 µg/mL
CC1(C)CC(N=c2cc3n(-c4ccccc4Cl)c4ccccc4nc-3cc2Nc2ccccc2Cl)CC(C)(C)N1	H37Rv	Macrophages	-	inside macrophages	MIC	-	0.06 µg/mL
CC(C)(C)C1=CC(=C2C(=O)C(=O)c3ccccc3C2=O)C=C(C(C)(C)C)C1=O	H37Rv	VERO	-	-	MIC	-	6.25 µg/mL
O=[N+]([O-])c1cccc2c(C3CCCCC3)cc(C3CCCCC3)nc12	Rifampicin-resistant	-	-	-	MIC	-	6.25 µg/mL
CO[C@H]1/C=C/O[C@@]2(C)Oc3c(C)c(O)c4c(O)c(c(/C=N/N5CCN(C)CC5)c(O)c4c3C2=O)NC(=O)/C(C)=C\C=C\[C@H](C)[C@H](O)[C@@H](C)[C@@H](O)[C@@H](C)[C@H](OC(C)=O)[C@@H]1C	22 strains (rifampicin-susceptible)	-	-	-	MIC50	-	≤0.05 µg/mL
O=C(/C=C/c1ccccc1Cl)c1ccc(F)cc1	H37Rv	-	MTT	21 d	MIC	-	32 µg/mL
Nc1cccc2ccc(C3CCCCC3)nc12	H37Rv	-	-	-	MIC	-	>6.25 µg/mL
CC1(C)CS(=O)(=O)N=C2CCCC1C2	H37Rv	-	BACTEC	-	MIC bound	-	>12.5 µg/mL
CN1CCN(c2cc3c(cc2[N+](=O)[O-])c(=O)c(C(=O)O)c2n3CS2)CC1c1ccccc1	H37Rv	-	agar	-	MIC	-	3.45 µM
CC(C)CCc1ccc(Oc2ccc(Cl)cc2Cl)c(O)c1	Clinical isolate 5071	-	-	-	MIC	-	60 µM
C[C@H]1COc2c(N3CCN(C)CC3)c(F)cc3c(=O)c(C(=O)O)cn1c23	23 strains (rifampicin-resistant)	-	-	-	MIC90	-	6.25 µg/mL
O=C1c2ccccc2C(=O)c2c(N=Nc3ccc(O)c(S(=O)(=O)O)c3)cccc21	H37Rv	-	BACTEC	-	inhibition	12.5 µg/mL	3%
CCc1ccnc2c([N+](=O)[O-])cc(C(C)=O)c(OC(C)C)c12	H37Rv	-	-	-	MIC	-	6.25 µg/mL
O=C(O)c1c2n(c3cc(N4CCC(n5c(=O)[nH]c6cc(Cl)ccc65)CC4)c([N+](=O)[O-])cc3c1=O)CS2	H37Rv	-	agar	-	MIC	-	0.73 µM
COc1ccc(C(=O)Nc2ccc(C(=O)NNC(=S)Nc3ccc(C)cc3)cc2)cc1	H37Rv	-	-	-	inhibition	6.25 µg/mL	0%
O=c1oc2ccc3ccccc3c2c(O)c1N=Nc1ccc([N+](=O)[O-])cc1	H37Rv	-	resazurin	-	inhibition	6.25 µg/mL	94%
CCN(CC)CCOc1ccc(NC(=S)Nc2ccc(OCC(C)C)cc2)cc1	BCG #256	-	-	-	MIC	-	31.3 µg/mL
FC(F)(F)c1nn2c(-c3ccccc3)c(-c3ccccc3)c(-c3ccccc3)c(-c3ccccc3)c2c1C(F)(F)F	H37Rv	-	resazurin	-	inhibition	6.25 µg/mL	16%
CC1(C)C2CC3OB(C[C@@H](Cc4ccccc4)NC(=O)[C@@H](N)Cc4ccccc4)O[C@]3(C)C1C2	H37Rv	-	-	-	MIC	-	≤50 µg/mL
CC(=O)c1cc([N+](=O)[O-])c2nc(C(C)(C)C)ccc2c1C(C)(C)C	H37Rv	-	-	-	inhibition	6.25 µg/mL	15%
COc1ccc2c(c1)n([O-])c1cc(C#N)ccc1[n+]2=O	PZA-R	-	-	-	MIC	-	12.5 µg/mL
CCOC(=O)/C=C/c1ccc(OC)cc1	BTB09-157	-	resazurin	-	MIC	-	242 µM
O=C(/C=C/c1c(F)cccc1Cl)c1ccccc1	H37Rv	-	resazurin	14 d	MIC	-	16 µg/mL
CC(=O)c1cc(N)c2ncccc2c1C1CCCC1	H37Rv	-	-	-	inhibition	6.25 µg/mL	24%
C[C@@H](B1OC2CC3CC(C3(C)C)[C@@]2(C)O1)[C@@H](Cc1ccccc1)NC(=O)[C@@H](N)CCCCN	H37Rv	-	agar	-	MIC	-	≤50 µg/mL
COc1cccc2c1C(=O)c1c(O)c3c(c(O)c1C2=O)C[C@@](O)(/C(C)=N/NC(N)=O)CC3OC1CC(N)C(O)C(C)O1.Cl	CS-R	-	-	-	MIC	-	12.5 µg/mL
O=C(O)c1cn2c(n1)CN(c1cc3c(cc1[N+](=O)[O-])c(=O)c(C(=O)O)c1n3CS1)CC2	H37Rv	-	agar	-	MIC	-	0.2 µM
CCN1C(=O)CS/C1=N\NC(=O)c1ccc(NC(=O)c2ccc(OC)cc2)cc1	H37Rv	-	-	-	MIC	-	>6.25 µg/mL
O=C(O)c1c2n(c3cc(N4CCC(N5CCCCC5)CC4)c(F)cc3c1=O)CS2	H37Rv	-	agar	-	MIC	-	7.49 µM
Cc1cccc(N=Nc2c(O)c3ccc(Cl)cc3[nH]c2=O)c1	H37Rv	-	resazurin	-	MIC	-	<6.25 µg/mL
N#C/C(=C\c1ccc(C#N)cc1)n1nnc2ccccc21	ATCC 27294	-	-	-	MIC50	-	>100 µM
Cn1nc(C(N)=O)c(=O)[nH]c1=O	H37Rv	-	BACTEC	-	MIC bound	-	>12.5 µg/mL
CC(=O)c1cc(N)c2nc(C(C)(C)C)ccc2c1	H37Rv	-	-	-	inhibition	6.25 µg/mL	0%
O=C(O)c1c2n(c3cc(N4CCN(C(=O)c5ccco5)CC4)c([N+](=O)[O-])cc3c1=O)CS2	H37Rv	-	agar	-	MIC	-	1.71 µM
C[C@@H](B1OC2CC3CC(C3(C)C)[C@@]2(C)O1)[C@@H](Cc1ccccc1)NC(=O)C(N)Cc1ccccc1	H37Rv	-	-	-	MIC	-	≤50 µg/mL
Nc1cccc2cccnc12	H37Rv	-	-	-	inhibition	6.25 µg/mL	0%
NC(=O)C1CC(O)CN1C(=O)c1cccnc1	H37Rv	-	BACTEC	-	MIC bound	-	>12.5 µg/mL
CO[C@H]1/C=C/O[C@@]2(C)Oc3c(C)c(O)c4c(O)c(c(/C=N/N5CCN(C)CC5)c(O)c4c3C2=O)NC(=O)/C(C)=C\C=C\[C@H](C)[C@H](O)[C@@H](C)[C@@H](O)[C@@H](C)[C@H](OC(C)=O)[C@@H]1C	TN801	-	-	-	MIC	-	2 µg/mL
N#C/C(=C\c1c(Cl)cccc1Cl)n1nnc2ccccc21	ATCC 27294	-	-	-	MIC50	-	6 µM
Nc1c(C(=O)Nc2cccc3c2C(=O)c2ccccc2C3=O)ccc2c1C(=O)c1ccccc1C2=O	H37Rv	-	BACTEC	-	MIC bound	-	>12.5 µg/mL
CC(=O)Nc1cccc2cccnc12	H37Rv	-	-	-	MIC	-	>6.25 µg/mL
O=C(Nc1cc(C(=O)Nc2ccc(C3=NCCN3)cc2)cc(C(=O)Nc2ccc(C3=NCCN3)cc2)c1)c1ccc(C(=O)Nc2cc(C(=O)Nc3ccc(C4=NCCN4)cc3)ccc2C(=O)Nc2ccc(C3=NCCN3)cc2)cc1	H37Rv	-	BACTEC	-	MIC bound	-	>12.5 µg/mL
N#C/C(=C/c1ccccc1Cl)n1nnc2ccccc21	ATCC 27294	-	-	-	MIC90	-	28.9 µM
Clc1nc2cc3c(cc2n2cccc12)oc1ccccc13	H37Rv	-	BACTEC	-	MIC bound	-	>12.5 µg/mL
CCCCOc1ccc(NC(=S)Nc2ccc(OCCN(CC)CC)cc2)cc1	H37RV #302	-	-	-	MIC	-	62.5 µg/mL
CN1CC2=C(NC(=S)NC2c2ccc(Cl)cc2)/C(=C/c2ccc(Cl)cc2)C1.Cl	H37Rv	-	BACTEC	-	inhibition	12.5 µg/mL	0%
COc1ccc(N=Nc2c(O)c3c(ccc4ccccc43)oc2=O)cc1	H37Rv	-	resazurin	-	MIC	-	<6.25 µg/mL
COc1ccc2c(=O)c(C)c(-c3ccccc3)oc2c1CN(C)C	H37Rv	-	BACTEC	-	inhibition	12.8 µg/mL	23%
NNC(=O)c1ccncc1	H37Rv	-	fluorescence / absorbance	-	EC90	-	0.62 µM
C[n+]1c(-c2ccc(/C=N/NC(=O)c3cncc(C(=O)N/N=C/c4ccc(-c5cn6ccccc6[n+]5C)cc4)c3)cc2)cn2ccccc21.Cc1ccc(S(=O)(=O)[O-])cc1.Cc1ccc(S(=O)(=O)[O-])cc1	H37Rv	-	BACTEC	-	MIC	-	≥12.5 µg/mL
COc1cc2c(cc1OC)CN(c1cc3c(cc1F)c(=O)c(C(=O)O)c1n3CS1)CC2	H37Rv	-	agar	-	MIC	-	3.53 µM
Cc1cc(O)c(-c2c(-c3ccccc3C(=O)O)oc3cc(C)c(C)cc23)cc1C	H37Rv	-	BACTEC	-	MIC bound	-	>12.5 µg/mL
O=c1[nH]c2ccccc2c(O)c1N=Nc1ccccc1	H37Rv	-	resazurin	-	inhibition	6.25 µg/mL	97%
C=CC1CN2CCC1CC2C(O)c1ccnc2ccc(OC)cc12.CC(O)C(O)C(O)C(O)C(=O)O	H37Rv	-	resazurin	-	MIC bound	-	>6.25 µg/mL
COc1ccc(C(=O)Nc2ccc(C(=O)N/N=C/c3ccc(F)cc3)cc2)cc1	H37Rv	-	-	-	MIC	-	>6.25 µg/mL

8 of the rows above, restated:

smiles	strain	cells	read by	conditions	measure	tested at	value
COc1cc(OC)c(/C=C2\N=C(c3ccccc3)OC2=O)c(OC)c1	H37Rv	-	BACTEC	-	MIC bound	-	>12.5 µg/mL
O=C(Nc1cc(C(=O)Nc2ccc(C3=NCCN3)cc2)cc(C(=O)Nc2ccc(C3=NCCN3)cc2)c1)c1ccc(C(=O)Nc2cc(C(=O)Nc3ccc(C4=NCCN4)cc3)ccc2C(=O)Nc2ccc(C3=NCCN3)cc2)cc1	H37Rv	-	BACTEC	-	MIC bound	-	>12.5 µg/mL
Oc1cc(CCc2ccccc2)ccc1Oc1ccc(Cl)cc1Cl	Clinical isolate 12081	-	-	-	MIC	-	210 µM
COc1ccc(C(=O)Nc2ccc(C(=O)N/N=C/c3ccc(F)cc3)cc2)cc1	H37Rv	-	-	-	MIC	-	>6.25 µg/mL
CC(=O)c1cc(N)c2ncccc2c1C1CCCC1	H37Rv	-	-	-	inhibition	6.25 µg/mL	24%
NNC(=O)c1ccncc1	H37Rv	-	fluorescence / absorbance	-	EC90	-	0.62 µM
COc1ccc(C(=O)/C=C/c2ccc(F)cc2)cc1F	H37Rv	-	resazurin	14 d	MIC	-	128 µg/mL
O=C(O)c1c2n(c3cc(N4CCN(Cc5ccc6c(c5)OCO6)CC4)c([N+](=O)[O-])cc3c1=O)CS2	H37Rv	-	agar	-	MIC	-	0.79 µM

ECn: concentration that inhibits the pathogen or its effect by n%. An empty or dashed field is not shown. A number after MIC or MFC names an inhibition level or a share of isolates. Percent inhibition refers to the dose given; in toxicity tests it is the harm to the cells. Neighbouring rows are from separate reports.